Assay results taken from patent US8574608B2, “Bactericidal silver surfactant delivery into coating and polymer compositions” (Eastern Michigan Universtity, priority 2007, dated 2013).

Tested on: Staphylococcus aureus ATCC 6538
Assay: S. aureus challenge by fabrics sprayed with AgAOT
Details: for effect on S. aureus: 0.24% silver solution sprayed
[1] = acetate, sprayed 0.06% w/w AgAOT/isopropanol, 0 h contact time
[2] = acetate, sprayed 0.06% w/w AgAOT/isopropanol, 24 h contact time
[3] = cotton, sprayed 0.06% w/w AgAOT/isopropanol, 0 h contact time
[4] = cotton, sprayed 0.06% w/w AgAOT/isopropanol, 24 h contact time
[5] = linen, sprayed 0.06% w/w AgAOT/isopropanol, 24 h contact time
[6] = polyester, sprayed 0.06% w/w AgAOT/isopropanol, 0 h contact time
[7] = polyester, sprayed 0.06% w/w AgAOT/isopropanol, 24 h contact time
[8] = rayon, sprayed 0.06% w/w AgAOT/isopropanol, 24 h contact time
[9] = silk, sprayed 0.06% w/w AgAOT/isopropanol, 0 h contact time
[10] = silk, sprayed 0.24% w/w AgAOT/isopropanol, S. aureus - 24 h

silver bis[2-ethylhexyl]sulfosuccinate
CFU/mL, Average [1]: 0.00E+00 CFU/mL | CFU/mL, Run #1-#4 [1]: 0.00E+00 CFU/mL | CFU/mL, Average [2]: 0.00E+00 CFU/mL | CFU/mL, Run #1-#4 [2]: 0.00E+00 CFU/mL | S. aureus eradication (cotton, linen, polyester, acetate and rayon, 0.06% silver solution sprayed, 24 h contact time): complete eradication | S. aureus growth inhibition (cotton, polyester and acetate, 0.06% silver solution sprayed, 0 h contact time (about 3-10 minutes)): complete | CFU/mL, Average [3]: 0.00E+00 CFU/mL | CFU/mL, Run #1-#4 [3]: 0.00E+00 CFU/mL | CFU/mL, Average [4]: 0.00E+00 CFU/mL | CFU/mL, Run #1-#4 [4]: 0.00E+00 CFU/mL | CFU/mL, Average (linen, sprayed 0.06% w/w AgAOT/isopropanol, 0 h contact time): 1.24E+04 CFU/mL | CFU/mL, Average [5]: 0.00E+00 CFU/mL | CFU/mL, Run #1-#4 [5]: 0.00E+00 CFU/mL | CFU/mL, Average [6]: 0.00E+00 CFU/mL | CFU/mL, Run #1-#4 [6]: 0.00E+00 CFU/mL | CFU/mL, Average [7]: 0.00E+00 CFU/mL | CFU/mL, Run #1-#4 [7]: 0.00E+00 CFU/mL | S. aureus growth inhibition (rayon, 0.06% silver solution sprayed, 0 h contact time): 3 orders of magnitude | CFU/mL, Average (rayon, sprayed 0.06% w/w AgAOT/isopropanol, 0 h contact time): 1.88E+02 CFU/mL | CFU/mL, Average [8]: 0.00E+00 CFU/mL | CFU/mL, Run #1-#4 [8]: 0.00E+00 CFU/mL | S. aureus growth inhibition (silk, 0.06% silver solution sprayed, 0 h contact time): no effect | effect on S. aureus (silk, 0 h contact time (5-10 minutes)): neither organism was significantly affected | effect on S. aureus (silk, 24 h contact): eradicated completely | CFU/mL, Average [9]: 1.45E+05 CFU/mL | CFU/mL, Run #1-#2 [9]: 1.80E+05 CFU/mL and 1.10E+05 CFU/mL | CFU/mL, Average (silk, sprayed 0.06% w/w AgAOT/isopropanol, 24 h contact time): 9.13E+03 CFU/mL | CFU/mL, Average (silk, sprayed 0.24% w/w AgAOT/isopropanol, S. aureus - 0 h): 1.35E+05 CFU/mL | CFU/mL, Average [10]: 0.00E+00 CFU/mL | CFU/mL, Run #1-#4 [10]: 0.00E+00 CFU/mL

Several values for one entry are separate records, joined by “and”; a condition that tells them apart may be missing. Equal entries are not always repeated.
